Measured values from patent publication US11052151B2, “Diagnosis and treatment of autism spectrum disorder” (California Institute of Technology, priority 2012, dated 2021).

Assay: Metabolomics screening (GC/LC-MS) of sera after B. fragilis treatment of MIA offspring
Type: in vivo, mice
Conditions: poly(I:C)+B. fragilis offspring relative to saline controls, p<0.05

Row | Substance | I:C-Bfrag / CON (fold change of serum metabolite)
1 | linolenate [alpha or gamma; (18:3n3 or 6)] | 0.62
2 | suberate (octanedioate) | 0.69
